This experiment deals with Replicase polyprotein 1ab (Severe acute respiratory syndrome coronavirus 2) (UniProt P0DTD1). The experiment is described as follows: Inhibition of SARS-CoV-2 3CL-Pro proteolytic cleavage of a dual-labeled substrate by FRET at 1mM DTT. The format is functional. More on the design: assay stage.

On to `CN1CCN(C2=C(Cl)C(=O)N(c3ccc(Cl)c(Cl)c3)C2=O)CC1`, for which the IC50 relative was 1560 nM.

The values are drawn from ChEMBL document CHEMBL5303710, “ECBD screening data for assay EOS300044” (2022).
